# Results published in PubChem BioAssay AID485341 (National Center for Advancing Translational Sciences (NCATS), 2010).
# Sequences of proteins named here, by UniProt entry; tags and fusion partners are left off.
# UniProt P00811, whole entry: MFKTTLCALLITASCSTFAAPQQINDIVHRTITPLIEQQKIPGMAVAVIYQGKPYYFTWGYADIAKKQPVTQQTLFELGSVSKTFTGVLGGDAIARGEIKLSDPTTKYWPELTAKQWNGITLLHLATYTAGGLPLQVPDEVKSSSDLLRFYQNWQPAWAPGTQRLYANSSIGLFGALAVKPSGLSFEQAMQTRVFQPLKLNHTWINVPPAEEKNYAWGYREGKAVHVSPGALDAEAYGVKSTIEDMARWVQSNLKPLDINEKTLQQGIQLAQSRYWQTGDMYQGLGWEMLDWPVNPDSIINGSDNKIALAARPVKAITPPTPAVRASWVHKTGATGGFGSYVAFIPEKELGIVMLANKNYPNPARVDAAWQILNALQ
# This is a selection; strong and weak results do not stand in their true shares. Some salts and complexes are drawn in separate pieces, as the source files them; their charges need not balance. The source made the active and inactive calls. The call rests on the fitted dose curve; in most records, active means well fitted inhibition curve with a large enough effect; inconclusive means small, poorly fitted or top-dose-only effect; inactive means no such curve, though single readings can be large or run the other way.
# Biological target: Beta-lactamase (Escherichia coli (strain K12)) (UniProt P00811)
# Assay: qHTS Inhibitors of AmpC Beta-Lactamase (assay without detergent); further: nearly all actives have a fitted effect of over 20% in size
# Settings: AmpC nitrocefin hydrolysis, absorbance 480 nm, 0.0001% Triton; at 57.1 µM (top of the series) unless noted
# Protocol: NIH Molecular Libraries Probe Production Network [MLPCN] NIH Chemical Genomics Center [NCGC] Assay Provider: Professor Brian Shoichet, UCSF Assay Overview: This aggregation profiling approach exploits the sensitivity of aggregate formation to detergent. Inhibition of b-lactamase is measured in the presence and absence of 0.01% Triton X-100. This particular assay had the prescence of 0.01% Triton X-100. See Pubchem assay "Promiscuous and Specific Inhibitors of AmpC Beta-Lactamase (assay without detergent)" for related screen. Compounds that inhibit only in the absence of detergent are considered likely promiscuous aggregators. A screen of 1,030 compounds was performed in Brian Shoichet's lab in 96-well format. AmpC activity was measured by following the absorbance at 480 nm. Nitrocefin is a chromogenic substrate: while nitrocefin is yellow (lmax 390 nm), the product of its hydrolysis is red (lmax 486 nm, 17,000 M-1). AmpC beta lactamase was provided by Shoichet Lab, UCSF.
# Buffer: 20 mM phosphate buffer, pH 7.0 Triton X-100: No Detergent screen: 0.0001%, Detergent screen: 0.01%. Reagents/Controls: Buffer in columns 3 and 4 as negative control (no enzyme). 5.3 nM AmpC in columns 1, 2, 5-48. Titration of UCSF compound 9 control (from 10 mM, then 1:2) pin-transferred to column 2. Column 1 is neutral (100% activity). Assay Steps: Six uL of reagents were dispensed to 1536-well Greiner black clear bottom plates. Compounds and controls (23 nL) were transferred via Kalypsys PinTool. The plates were incubated for 15 min at room temperature, and then 2 uL of 800 uM solution of nitrocefin was added to start the reaction. The plates were immediately transferred to and read every 20 seconds for 4 min on ViewLux (Perkin-Elmer) High-throughput CCD imager using 480 nm absorbance protocol. During dispense, reagent bottles were kept submerged into 4 deg C water bath. Keywords: NIH Roadmap, MLSCN, MLI, MLSMR, qHTS, NCGC, AmpC Beta-Lactamase, Aggregation
row,SMILES,"activity change, negative = inhibition"
1,O=C(NCC1(N2CCCCC2)CCCCC1)c1ccc(Cl)nc1,inactive: 1.98%
2,Cc1cc(C)cc(N(C(=O)c2ccccc2)C2CCN(C(=O)OC(C)(C)C)CC2)c1,inactive: 137%
3,O=C(NCC1(N2CCOCC2)CCCCC1)c1cc2ccccc2o1,inactive: -13.3%
4,O=C(OC1CN2CCC1CC2)C1c2ccccc2Oc2ccccc21 (centres undefined),inactive: 7.24%
5,O=C(NCC1(N2CCCCC2)CCCCC1)c1ccc(Cl)s1,inactive: -4.53%
6,N#CC1(Nc2ccccc2)CCN(Cc2ccccc2)CC1,inactive: -6.2%
7,COc1ccc(Cl)cc1C(=O)NCC1(N2CCOCC2)CCCCC1,inactive: 23.1%
8,CCOC(=O)N1CCC(Nc2ccc(OC)cc2)CC1,inactive: -16.1%
9,COc1ccc(C(=O)NCC2(N3CCCCC3)CCCCC2)cc1,inactive: -4.81%
10,CC(C)(C)OC(=O)N1CCC(N(C(=O)c2ccccc2)c2ccc(F)cc2)CC1,inactive: 67.6%
11,COc1ccc(C(=O)NCC2(N3CCCCC3)CCCCC2)c(OC)c1OC,inactive: -13.2% [at 2.29 µM]
12,O=C(NCC1(N2CCCCC2)CCCCC1)c1ccc(=O)[nH]c1,inactive: -7.17%
13,O=C(NCC1(N2CCCCC2)CCCCC1)c1cccs1,inactive: -22.2%
14,CSc1ccccc1C(=O)NCC1(N2CCCCC2)CCCCC1,inactive: 22%
15,COc1cc(C(=O)NCC2(N(C)C)CCCCC2)ccc1OC(F)F,inactive: -13%
16,CCOC(=O)N1CCC(Nc2cccc(C)c2)CC1,inactive: -11.8%
17,Cc1ccc(OCC(C)C)c(CN(CCCl)CCCl)c1,inactive: -3.68%
18,CCOc1ccc(C)cc1CN(CCCl)CCCl,inactive: -1.97%
19,O=C(NCC1(N2CCCCC2)CCCCC1)c1ccc(F)cc1,inactive: -19.2%
20,CCCCOc1ccc(C(=O)NCC2(N3CCOCC3)CCCCC2)cc1,inactive: 41.6%
21,COc1ccc(NC2CCN(CCc3ccccc3)CC2)c(OC)c1,inactive: -8.57%
22,CCOC(=O)N1CCC(Nc2ccc(F)cc2)CC1,inactive: -7.58%
23,O=[N+]([O-])c1cc([N+](=O)[O-])c(NCC2CCS(=O)(=O)C2)c([N+](=O)[O-])c1 (centres undefined),inactive: -24.3%
24,O=C(NCC1(N2CCCCC2)CCCCC1)c1cccc(C(F)(F)F)c1,inactive: -10.9%
25,COc1cc(C(=O)NCC2(N3CCCCC3)CCCCC2)ccc1OC(F)F,inactive: -0.667%

row,SMILES,"activity change, negative = inhibition"
1,O=C(NCC1(N2CCOCC2)CCCCC1)c1cc(=O)[nH]c2ccccc12,inactive: -10.9%
2,CN1CCN(CCOC(=O)C(O)(c2ccccc2)c2ccccc2)CC1,inactive: -3.19%
3,CC(C)c1ccc(C(=O)NCC2(N3CCOCC3)CCCCC2)cc1,inactive: 49%
4,COc1ccc(NC2CCN(C(=O)OC(C)(C)C)CC2)cc1,inactive: 55.1%
5,O=C(NCC1(N2CCCCC2)CCCCC1)c1ccc(OC(F)F)cc1,inactive: -12%
6,CCN1CCC(Nc2ccc(Cl)cc2)CC1,inactive: -5.79%
7,N#CC1(Nc2ccccc2)CCN(CCc2ccccc2)CC1,inactive: -17.3%
8,O=C(NCC1(N2CCCCC2)CCCCC1)c1cccc([N+](=O)[O-])c1,inactive: -10.6%
9,CSc1ccc(C(=O)NCC2(N3CCOCC3)CCCCC2)cc1,inactive: -8.46%
10,O=C(OC1CN2CCC1CC2)c1ccc([N+](=O)[O-])cc1 (centres undefined),inactive: -10.2%
11,COc1ccc2c(c1O)-c1c(O)c(OC)cc3c1[C@H](C2)[N+](C)(C)CC3.O=[N+]([O-])c1cc([N+](=O)[O-])c([O-])c([N+](=O)[O-])c1[O-],inactive: 29%
12,O=C(NCC1(N2CCCCC2)CCCCC1)c1cncc(Br)c1,inactive: -24%
13,CCCOc1ccc(C(=O)NCC2(N(C)C)CCCCC2)cc1OC,inactive: -10.2%
14,CC(C)c1ccc(NC2CCN(C(=O)OC(C)(C)C)CC2)cc1,inactive: 104%
15,COc1ccc(CN(CCCl)CCCl)cc1Cl,inactive: -5.62%
16,O=[N+]([O-])c1cc([N+](=O)[O-])c(OC2CCCCC2O)c([N+](=O)[O-])c1 (centres undefined),inactive: -12.5%
17,CN(C)c1cccc(C(=O)NCC2(N3CCCCC3)CCCCC2)c1,inactive: -46.9%
18,COc1cc(OC)c(C(=O)NCC2(N(C)C)CCCCC2)cc1OC,inactive: -9.05%
19,O=C(NCC1(N2CCOCC2)CCCCC1)c1cc(F)c(F)cc1Cl,inactive: -14.3%
20,CCOC(=O)N1CCC(Nc2ccc(C)cc2)CC1,inactive: 13.2%
21,N/C(=N\O)c1c(N)no[n+]1[O-],inactive: -23.5%
22,O=C(OC1CN2CCC1CC2)C1c2ccccc2C=Cc2ccccc21 (centres undefined),inactive: -9.51%
23,CCc1cc(C(=O)NCC2(N3CCCCC3)CCCCC2)sc1C,inactive: -16.6%
24,O=C(O)c1cccc(Nc2c([N+](=O)[O-])cc([N+](=O)[O-])cc2[N+](=O)[O-])c1,inactive: -5.11%
25,COc1cc(C(=O)NCC2(N3CCOCC3)CCCCC2)cc(OC)c1C,inactive: 2.76%

row,SMILES,"activity change, negative = inhibition"
1,O=C(NCC1(N2CCOCC2)CCCCC1)c1cc(Br)ccc1Cl,inactive: -8.3%
2,COc1ccc(C(=O)NCC2(N3CCOCC3)CCCCC2)cc1OC,inactive: -15.7%
3,CN(C)C1(CNC(=O)c2cccc(C#N)c2)CCCCC1,inactive: -22%
4,c1ccc(CN2CCC(Nc3ccccc3)CC2)cc1,inactive: -2.89%
5,CCCN1CCC(Nc2cc(OC)cc(OC)c2)CC1,inactive: 19.4%
6,N#Cc1ccc(C(=O)NCC2(N3CCCCC3)CCCCC2)cc1,inactive: -15.6%
7,CC(C)(C)OC(=O)N1CCC(N(C(=O)c2ccccc2)c2ccc(Cl)cc2)CC1,inactive: 119%
8,CCOC(=O)C(CC)C1=NC(C)(C)Cc2ccccc21.O=[N+]([O-])c1cc([N+](=O)[O-])c(O)c([N+](=O)[O-])c1 (centres undefined),inactive: -10.8%
9,CCN1CCC(Nc2cccc(F)c2)CC1,inactive: 0.291%
10,O=C(NCC1(N2CCCCC2)CCCCC1)c1ccco1,inactive: -9.03%
11,CN(C)c1ccc(C(=O)NCC2(N3CCCCC3)CCCCC2)cc1,inactive: -16%
12,COc1cc(OC)cc(C(=O)NCC2(N3CCCCC3)CCCCC2)c1,inactive: 2.36%
13,Cc1ccc(C(=O)NCC2(N3CCCCC3)CCCCC2)o1,inactive: -9.91%
14,Fc1ccccc1NC1CCN(Cc2ccccc2)CC1,inactive: -17.3%
15,COc1cc(OC)cc(C(=O)NCC2(N3CCOCC3)CCCCC2)c1,inactive: -32.7%
16,COc1cccc(C(=O)N(c2cc(C)cc(C)c2)C2CCN(C(=O)OC(C)(C)C)CC2)c1,inactive: 102%
17,CCC(CO)(C(=O)OC1CN2CCC1CC2)c1ccccc1 (centres undefined),inactive: -2.09%
18,CN1CCC(Nc2ccc(Cl)cc2)CC1,inactive: -5.13%
19,CCCOc1ccc(C)cc1CN(CCCl)CCCl,inactive: -8.4%
20,CCOc1ncccc1C(=O)NCC1(N2CCOCC2)CCCCC1,inactive: -1.33%
21,CN1CCC(Nc2ccc(F)c(Cl)c2)CC1,inactive: -6%
22,CC(C)(C)OC(=O)N1CCC(Nc2ccccc2)CC1,inactive: 17.9%
23,O=C(O)C1(Nc2ccccc2)CCN(Cc2ccccc2)CC1,inactive: -4.95%
24,CCCOc1ccc(C(=O)NCC2(N(C)C)CCCCC2)cc1,inactive: -2.48%
